{"source": "PubChem BioAssay AID1259414 (Drosophila RNAi Screening Center, 2018)", "purpose": "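Host factors increasing or decreasing Wolbachia levels in cultured fly cells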 (primary screen)", "cell system": "Drosophila JW18 cells infected with Wolbachia", "reagent": "long dsRNA against Drosophila genes, 0.25 µg dsRNA per well of a 384-well plate", "duration": "5 days", "challenge": "cells persistently infected with Wolbachia before knock-down; no added drug", "read-out": "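Imaged fluorescence in situ signal for Wolbachia 23S rRNA per DAPI-counted host cell, given as a robust z-score within each plate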", "scale": "Wolbachia per cell robust z: higher = more Wolbachia per host cell than the plate typical", "rule for the call": "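Active if absolute robust z reaches 1.5 in two or more of three replicates, leaving out multi- or no-target dsRNAs, genes unexpressed in JW18 and A1 wells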", "note": "The deposit covers about 24,000 reagents; this is a random part of those with a known target gene and a result. Over the whole deposit, about 1,210 (5%) were called active. 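Inactive calls also include excluded dsRNAs with several or no targets, genes unexpressed in JW18, and well A1, regardless of score.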 Reagents against one gene are numbered here."}
{"Target gene": "CG31021", "reagent no.": 1, "Wolbachia per cell robust z, rep 1": -1.22, "Wolbachia per cell robust z, rep 2": -0.585, "Wolbachia per cell robust z, rep 3": -0.97, "call": "inactive"}
{"Target gene": "CG10734", "reagent no.": 1, "Wolbachia per cell robust z, rep 1": 0.474, "Wolbachia per cell robust z, rep 2": 0.984, "Wolbachia per cell robust z, rep 3": -2.09, "call": "inactive"}
{"Target gene": "firl", "reagent no.": 1, "Wolbachia per cell robust z, rep 1": -1.12, "Wolbachia per cell robust z, rep 2": -0.101, "Wolbachia per cell robust z, rep 3": 0.0285, "call": "inactive"}
{"Target gene": "lncRNA:CR32661", "reagent no.": 1, "Wolbachia per cell robust z, rep 1": -2.67, "Wolbachia per cell robust z, rep 2": -0.983, "Wolbachia per cell robust z, rep 3": -1.28, "call": "inactive"}

No new results follow: an excerpt of the list.
{"Target gene": "firl", "reagent no.": 1, "Wolbachia per cell robust z, rep 1": -1.12, "Wolbachia per cell robust z, rep 2": -0.101, "Wolbachia per cell robust z, rep 3": 0.0285, "call": "inactive"}
{"Target gene": "lncRNA:CR32661", "reagent no.": 1, "Wolbachia per cell robust z, rep 1": -2.67, "Wolbachia per cell robust z, rep 2": -0.983, "Wolbachia per cell robust z, rep 3": -1.28, "call": "inactive"}

Further entries follow.
{"Target gene": "iPLA2-VIA", "reagent no.": 1, "Wolbachia per cell robust z, rep 1": -7.58, "Wolbachia per cell robust z, rep 2": -0.149, "Wolbachia per cell robust z, rep 3": -0.342, "call": "inactive"}
{"Target gene": "CG31183", "reagent no.": 1, "Wolbachia per cell robust z, rep 1": 0.943, "Wolbachia per cell robust z, rep 2": 0.564, "Wolbachia per cell robust z, rep 3": 1.43, "call": "inactive"}
{"Target gene": "CG31183", "reagent no.": 2, "Wolbachia per cell robust z, rep 1": 0.0132, "Wolbachia per cell robust z, rep 2": -0.635, "Wolbachia per cell robust z, rep 3": 0.000324, "call": "inactive"}
{"Target gene": "Acox3", "reagent no.": 1, "Wolbachia per cell robust z, rep 1": 1.67, "Wolbachia per cell robust z, rep 2": 1.48, "Wolbachia per cell robust z, rep 3": 0.944, "call": "inactive"}
{"Target gene": "Acox3", "reagent no.": 2, "Wolbachia per cell robust z, rep 1": 0.701, "Wolbachia per cell robust z, rep 2": -1.19, "Wolbachia per cell robust z, rep 3": -0.27, "call": "inactive"}
{"Target gene": "Brd7-9", "reagent no.": 1, "Wolbachia per cell robust z, rep 1": 0.216, "Wolbachia per cell robust z, rep 2": 0.011, "Wolbachia per cell robust z, rep 3": 0.825, "call": "inactive"}
{"Target gene": "Brd7-9", "reagent no.": 2, "Wolbachia per cell robust z, rep 1": -1.54, "Wolbachia per cell robust z, rep 2": 0.532, "Wolbachia per cell robust z, rep 3": 1.67, "call": "inactive"}
{"Target gene": "betaGlu", "reagent no.": 1, "Wolbachia per cell robust z, rep 1": 1.37, "Wolbachia per cell robust z, rep 2": -0.452, "Wolbachia per cell robust z, rep 3": -0.714, "call": "inactive"}
{"Target gene": "betaGlu", "reagent no.": 2, "Wolbachia per cell robust z, rep 1": -0.882, "Wolbachia per cell robust z, rep 2": -1.34, "Wolbachia per cell robust z, rep 3": -2.07, "call": "inactive"}
{"Target gene": "betaGlu", "reagent no.": 3, "Wolbachia per cell robust z, rep 1": 0.178, "Wolbachia per cell robust z, rep 2": 1.46, "Wolbachia per cell robust z, rep 3": -1.5, "call": "inactive"}
